Chains of the proteins cited; added tags and fusions are not shown. A line that says so, or that is headed by a name, gives the form on record, which may keep a tag or linker. Residues count along the entry.
UniProt C7C422, 29-270 with tags or gaps limits assumed: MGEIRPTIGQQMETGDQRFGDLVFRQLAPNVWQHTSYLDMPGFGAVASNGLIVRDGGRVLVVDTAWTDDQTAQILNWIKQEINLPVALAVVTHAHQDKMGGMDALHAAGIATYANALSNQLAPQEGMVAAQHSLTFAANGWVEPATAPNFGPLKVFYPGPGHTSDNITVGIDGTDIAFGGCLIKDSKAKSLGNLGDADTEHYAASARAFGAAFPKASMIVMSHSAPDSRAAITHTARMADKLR

According to patent publication US9115079B2, “NDM inhibitor” (priority 2011, dated 2015):

Target: NDM-1 (Klebsiella pneumoniae, UniProt C7C422)
Settings: NDM-1 2.5 nM, 100 μM imipenem as substrate, 100 μM ZnSO4, pH 7.5, 30° C.; tested form: disodium salt

Row | SMILES | IC50
1 | CC(C)/C(C(=O)O)=C(/C(=O)O)[C@H]1CC[C@H](O)CC1 | 30 to 100 µM
2 | NCCOc1ccc(C/C(C(=O)O)=C(/C(=O)O)[C@H]2CC[C@@H](O)CC2)cc1 | < 10 µM
